According to PMC5016661 (The Journal of Biological Chemistry, 2016):

Biological target: the molecule itself
Test: atomic force microscopy (high speed AFM)

B1: FraC V8C/K69C, oxidised (natural protein)
chain: ADVAGACIDGAGLGFDVLKTVLEALGNVKRKIAVGIDNESGKTWTAMNTYFRSGTSDIVLPHKVAHGCALLYNGQKNRGPVATGVVGVIAYSMSDGNTLAVLFSVPYDYNWYSNWWNVRVYKGQKRADQRMYEELYYHRSPFRGDNGWHSRGLGYGLKSRGFMNSSGHAILEIHVTKA
binding result: binds
